PubChem BioAssay AID1259414, Drosophila RNAi Screening Center, 2018
Test: 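Fly genes that alter Wolbachia amount inside host cells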 (primary screen). System: Drosophila JW18 cells infected with Wolbachia. Reagent: long dsRNA against Drosophila genes, 0.25 µg dsRNA per well of a 384-well plate. Time to read-out: 5 days. Conditions: cells persistently infected with Wolbachia before knock-down; no added drug. Read-out: 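Automated imaging of bacterial rRNA staining divided by host cell count, reported as plate-normalised robust z-score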. Reading the numbers: Wolbachia per cell robust z: higher = more Wolbachia per host cell than the plate typical. Rule for the call: 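Hit when robust z is 1.5 or more, or -1.5 or less, in at least two of three replicates; excludes dsRNAs with several or no targets, genes not expressed in JW18 and well A1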.
In all, the deposit lists about 24,000 reagents; shown is a random part of those that have a named target and a result. In the full data, about 1,210 (5%) were called active. 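Inactive calls also include excluded dsRNAs with several or no targets, genes unexpressed in JW18, and well A1, regardless of score.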 The numbers tell different reagents against one gene apart. Names joined by + are all predicted targets of the reagent.

| target gene | dsRNA no. | Wolbachia per cell robust z, rep 1 | Wolbachia per cell robust z, rep 2 | Wolbachia per cell robust z, rep 3 | call |
| --- | --- | --- | --- | --- | --- |
| Hcf | 1 | -0.839 | 1.54 | -2.46 | inactive |
| Theg | 1 | -0.0114 | -0.0249 | -0.663 | inactive |
| lcs | 1 | 0.319 | -1.61 | 0.367 | inactive |
| lcs | 2 | 0.883 | 0.243 | -0.199 | inactive |
| amon | 1 | -0.339 | 0.755 | 0.103 | inactive |
| amon | 2 | -0.398 | -2.42 | 1.06 | inactive |
| CG9360 | 1 | 0.452 | -0.617 | 0.686 | inactive |
| Cyp12a4 | 1 | 0.457 | 0.393 | -1.07 | inactive |
| Cyp12a4 | 2 | 0.436 | -0.319 | -0.734 | inactive |
| Npc2f | 1 | -1.28 | 0.213 | 0.63 | inactive |
| CIAPIN1 | 1 | 0.392 | -0.239 | 0.294 | inactive |
| CIAPIN1 | 2 | 0.65 | -0.414 | -0.734 | inactive |
| CIAPIN1 | 3 | -0.715 | -0.988 | -0.752 | inactive |
| CG6441 | 1 | 0.383 | -6.33 | -0.72 | inactive |
| chif + Hyls1 | 1 | -1.81 | -0.734 | 0.385 | inactive |
| CG3397 | 1 | -2.75 | 0.298 | 2.02 | inactive |
| GstD10 | 1 | 0.587 | 0.478 | 0.466 | inactive |
| GstD10 | 2 | 0.543 | -2.16 | -2.06 | active |
| CG11438 | 1 | 0.115 | 0.406 | 0.281 | inactive |
| CG32023 | 1 | -0.646 | 1.2 | 0.561 | inactive |
| CG4751 | 1 | -1.09 | -0.767 | -1.88 | inactive |
| CG13458 | 1 | -0.827 | -7.78 | -0.0861 | inactive |
| CG13458 | 2 | 1.21 | -0.201 | -0.223 | inactive |
| Ercc1 | 1 | 1.42 | 0.138 | 0.442 | inactive |
| CG3604 | 1 | -0.562 | -4.47 | 0.549 | inactive |
| CG14265 | 1 | -1.43 | -0.192 | -1.19 | inactive |
| CG14265 | 2 | 0.458 | 0.774 | 0.674 | inactive |

Targets listed so far whose gene name starts with L or l (2):
| target gene | dsRNA no. | Wolbachia per cell robust z, rep 1 | Wolbachia per cell robust z, rep 2 | Wolbachia per cell robust z, rep 3 | call |
| --- | --- | --- | --- | --- | --- |
| lcs | 1 | 0.319 | -1.61 | 0.367 | inactive |
| lcs | 2 | 0.883 | 0.243 | -0.199 | inactive |

Additional entries:
| target gene | dsRNA no. | Wolbachia per cell robust z, rep 1 | Wolbachia per cell robust z, rep 2 | Wolbachia per cell robust z, rep 3 | call |
| --- | --- | --- | --- | --- | --- |
| VhaM9.7-d | 1 | 0.978 | -0.676 | 0.948 | inactive |
| CG12836 | 1 | -2.23 | -0.535 | -0.343 | inactive |
| Dhc93AB | 1 | -0.828 | -1.09 | -1.24 | inactive |
| Dhc93AB | 2 | -0.38 | -0.743 | 0.11 | inactive |
| LamC | 1 | -8.96 | 1.01 | 0.223 | inactive |
| LamC | 2 | 0.45 | -1.06 | -1.61 | inactive |
| Shmt | 1 | -1.03 | -0.439 | -1.85 | inactive |
| PlexA | 1 | -1.72 | 0.856 | -0.623 | inactive |
| PlexA | 2 | -0.639 | -2.04 | -0.997 | inactive |
| AsnRS | 1 | 0.195 | -0.644 | 0.429 | inactive |
| CG7992 | 1 | 0.916 | 0.814 | 0.776 | inactive |
| CAH3 | 1 | -0.842 | -1.19 | -0.046 | inactive |
| Orai | 1 | -0.304 | 0.763 | 0.497 | inactive |
| pot | 1 | -4.26 | 0.812 | -3.18 | inactive |
| pot | 2 | -1.02 | -0.239 | 1.7 | inactive |
| RabX4 | 1 | 0.315 | 0.0138 | 1.18 | inactive |
| RabX4 | 2 | -0.0498 | -7.49 | -1.29 | inactive |
| CG13742 | 1 | 0.695 | -2.12 | -0.494 | inactive |
| CG12010 | 1 | 1.15 | 2.2 | 0.971 | inactive |
| CG13114 | 1 | -1.14 | -0.38 | -4 | inactive |
| CG5246 | 1 | -0.829 | -0.346 | 0.931 | inactive |
| CG5246 | 2 | 0.0481 | -0.628 | -4.16 | inactive |
| sprt | 1 | -1.1 | 0.183 | -0.878 | inactive |
| AnxB10 | 1 | -0.777 | 0.446 | -0.482 | inactive |
| AnxB10 | 2 | 1.45 | 0.825 | 0.38 | inactive |
| CG13309 | 1 | 0.722 | 0.102 | 0.986 | inactive |
| Clbn | 1 | 0.198 | 0.256 | -0.127 | inactive |
| Mur2B | 1 | -0.537 | -0.156 | 0.32 | inactive |
| Mur2B | 2 | -0.334 | -1.51 | 0.483 | inactive |
| CG11906 | 1 | 1.15 | 0.529 | 1.08 | inactive |
| GstO1 | 1 | 0.676 | 1.18 | -0.0949 | inactive |
| GstO1 | 2 | 0.542 | 0.953 | -0.44 | inactive |
| GstO1 | 3 | 1.24 | 0.615 | -2.45 | inactive |
| CG13223 | 1 | 0.19 | 0.361 | -1.44 | inactive |
| CG34002 | 1 | 0.426 | 1.74 | 0.682 | inactive |
| Fbxl7 | 1 | -4.03 | -0.591 | -0.561 | inactive |
| Fbxl7 | 2 | 0.353 | 0.19 | -0.211 | inactive |
| CG5404 | 1 | 1.81 | 1.11 | 0.693 | inactive |
| CG5404 | 2 | 0.409 | 1.28 | 0.963 | inactive |
| dome | 1 | 0.918 | 0.746 | 1.94 | inactive |
| dome | 2 | -0.761 | -1.31 | -0.888 | inactive |
